Assay results taken from article PMC10374108, “Structural and biochemical characterization of the key components of an auxin degradation operon from the rhizosphere bacterium Variovorax” (PLOS Biology, 2023).

The molecules below were run on IadD/E-IadC dioxygenase system (assay: In vitro IAA and analogs transformation assay, IadC + IadD/E). Details: result in words.
Assay type: biochemical, Variovorax paradoxus CL14
Method: The reaction mixture was composed of 100 mM Tris-HCl (pH7.5), 250 μM reduced NADH, 10 μM ammonium iron (II) sulfate, and 3 μM of each enzyme component. […] The mixture was vortexed periodically to introduce oxygen for the reaction and was boiled to stop the reaction. After pelleting the precipitants, the supernatant was collected and mixed with 2 volumes of Salkowski reagent made of 0.5 M ferric chloride and 35% perchloric acid for the quantification of residual substrate by measuring the adsorption at 530 nm.
In the case of O=C(O)Cc1c[nH]c2cccc(Cl)c12 [4-Cl-IAA, 4-chloroindole-3-acetic acid], the “transformation by IadD/E-IadC” value is reported as “transformed with reduced efficiency”.
O=C(O)Cc1c[nH]c2ccc(O)cc12 [5-HIAA, 5-hydroxy indole-3-acetic acid] was tested, and the “transformation by IadD/E-IadC” value was “could be further degraded”.
In the case of O=C(O)CCCc1c[nH]c2ccccc12 [IBA, indole-3-butyric acid], the “transformation by IadD/E-IadC” value is reported as “could not catalyze the turnover”.
O=C(O)CCc1c[nH]c2ccccc12 [IPA, indole-3-propionic acid] was tested, and the “transformation by IadD/E-IadC” value was “could not catalyze the turnover”.
